Anti-infective test results gathered from many reports (values: NIAID ChemDB through PubChem).

Common to all: tests in culture; agent: Respiratory syncytial virus; read by: cytopathic effect; endpoint: EC50

An empty or dashed field is not shown. ECn: concentration that inhibits the pathogen or its effect by n%. Neighbouring rows are from separate reports.

smiles	cell line	strain or isolate	value
NC(=O)c1[nH]nc([C@@H]2O[C@H](CO)[C@@H](O)[C@H]2O)c1O	HeLa	58-13	0.08 µg/mL
C=C(C)n1c(=O)n(Cc2nc3ccccc3n2CCCC(=N)N=[N+]=[N-])c2ccccc21	HEP-2	Long (subtype A)	0.01 µM
Nc1nc2c(ncn2COC2COP(=O)(O)OC2)c(=O)[nH]1	HeLa	LONG	>125 µg/mL
CC(C)CCCC(C)C1CCC2C3CC=C4CC(OC(=O)Nc5ccc(S(=O)(=O)O)c6ccccc56)CCC4(C)C3CCC12C	HeLa		6.5 µM
C[C@H](COc1cc(N)nc(N)n1)OCP(=O)(O)O			>180 µM
C[C@H](O)[C@]1(C)C[C@H](Cn2nnc3c(N)ncnc32)C1(C)C	HeLa		>200 µg/mL
Nc1ccn([C@@H]2C[C@H](CO)[C@@H](O)[C@H]2O)c(=O)n1	HeLa		>70 µg/mL
C[C@H](O)[C@@H]1C[C@H](Cn2cnc3c(N)ncnc32)C1(C)C	HeLa		2.4 µg/mL
NC(=O)c1ncn([C@@H]2O[C@H](CO)[C@@H](O)[C@H]2O)n1	HEP-2		10.7 µg/mL
C#Cc1c(C(N)=O)ncn1[C@@H]1O[C@H](CO)[C@@H](O)[C@H]1O	HeLa		0.7 µg/mL
CCCc1cc(=O)oc2cc(O)c(C(=O)CC)c(O)c12			2 µg/mL
CC(C)CCCC(C)C1CCC2C3CC=C4CC(OC(=O)Nc5cc(S(=O)(=O)O)cc6cc(S(=O)(=O)O)cc(O)c56)CC[C@]4(C)C3CC[C@]12C	HeLa		>200 µM
Nc1nccc2c1ncn2[C@@H]1C[C@H](CO)[C@@H](O)[C@H]1O	HEP-2		9 µg/mL
C[C@H](O)[C@@H]1C[C@H](Cn2cnc3c(=O)[nH]cnc32)C1(C)C	HeLa		>400 µg/mL
Nc1nc2c(ncn2[C@@H]2O[C@@H](CO)[C@H](O)[C@H]2O)c(=O)[nH]1	VERO B	A2	>1000 µM
O=C(O)c1cccc(Cn2c(=O)n(Cc3nc4ccccc4n3CCCn3cnnn3)c3ccccc32)c1	HEP-2	Long (subtype A)	0.007 µM
O=c1[nH]c(=O)n([C@H]2C[C@H](O)[C@@H](CO)O2)cc1/C=C/Br	HeLa		>400 µg/mL
Nc1nc2c(ncn2[C@H]2C[C@@H](O)[C@H](CO)O2)c(=O)[nH]1	VERO B	A2	>1000 µM
N=C(N)c1ccc2[nH]c(C(=N)N)cc2c1	HeLa	58-8	>25 µg/mL
c1ccc2c(c1)CSSC2	HeLa	clone 5 (RD3-0028-resistant)	>244.4 µM
CC(C)CCCC(C)C1CCC2C3CC=C4CC(OC(=O)Nc5ccc(S(=O)(=O)O)c6cccc(S(=O)(=O)O)c56)CCC4(C)C3CCC12C	HeLa		4 µM
Nc1cc(OC[C@H](CO)OCP(=O)(O)O)nc(N)n1			>15 µM
Nc1cc2[nH]cnc2c(=O)[nH]1	HeLa	58-14	1.7 µg/mL
C/C=C1\[C@H](OC2O[C@H](CO)[C@@H](O)[C@H](O)[C@H]2O)OC=C(C(=O)O)[C@H]1CC(=O)OCC(OCC)c1ccc(O)c(O)c1	HEP-2	LONG	>150 µM
CC(=O)Oc1ccc([C@@H]2CC(=O)c3c(cc(OC(C)=O)c(-c4c(OC(C)=O)cc5c(c4OC(C)=O)C(=O)C[C@@H](c4ccc(OC(C)=O)cc4)O5)c3OC(C)=O)O2)cc1	MA-104	UTAH 89	>3 µg/mL
O=c1ccn([C@@H]2O[C@@H](CO)[C@H](O)[C@H]2O)c(=O)[nH]1	VERO B	A2	>1000 µM
O=c1[nH]c(=O)n([C@@H]2O[C@H](CO)C[C@H]2O)cc1F	HeLa	LONG	>500 µg/mL
C[C@H]1C[C@@H](n2cnc3c(N)ncnc32)[C@H](O)[C@@H]1O	HeLa	LONG	≥40 µg/mL
NC(=O)c1ncn([C@@H]2O[C@H](CO)[C@@H](O)[C@H]2O)n1	HeLa	LONG	3.6 µg/mL
NC(=O)c1ncn([C@@H]2O[C@H](CO)[C@@H](O)[C@H]2O)n1	HeLa		6 µg/mL
Clc1ccc(-c2csc(N3N=C(c4cccs4)CC3c3ccc(Cl)cc3)n2)cc1	HeLa	LONG	>200 µg/mL
Cc1cn([C@H]2C[C@@H](O)[C@H](CO)O2)c(=O)[nH]c1=O	VERO B	A2	>1000 µM
C/C=C1/[C@H](O[C@@H]2O[C@H](CO)[C@@H](O)[C@H](O)[C@H]2O)OC=C(C(=O)OC)[C@H]1CC(=O)OCCc1ccc(O)c(O)c1	HEP-2	LONG	23.4 µM
COc1ccc(Cc2nccc3cc(OC)c(OC)cc23)cc1OC	HeLa	A2	12.8 µg/mL
CC(C)CCn1c(Cn2c(=O)n(Cc3ccc(C(=O)O)cc3)c3ccccc32)nc2ccccc21	HEP-2	Long (subtype A)	0.01 µM
NC(=O)c1ncn([C@@H]2O[C@H](CO)[C@@H](O)[C@H]2O)n1	HeLa	LONG	3 µg/mL
C[C@H](Cn1cnc2c(N)ncnc21)OCP(=O)(O)O			>525 µM
Cc1nnnn1/C=C/c1ccc(O)c(C(c2ccc(O)cc2)c2cc(/C=N/n3nnnc3C)ccc2O)c1	HEP-2		0.0014 µM
CC(C)CCn1c(Cn2c(=O)n(CC(=N)N=[N+]=[N-])c3ccccc32)nc2ccccc21	HEP-2	Long (subtype A)	0.5 µM

Again, the opening 4 rows:

| smiles | cell line | strain or isolate | value |
|---|---|---|---|
| NC(=O)c1[nH]nc([C@@H]2O[C@H](CO)[C@@H](O)[C@H]2O)c1O | HeLa | 58-13 | 0.08 µg/mL |
| C=C(C)n1c(=O)n(Cc2nc3ccccc3n2CCCC(=N)N=[N+]=[N-])c2ccccc21 | HEP-2 | Long (subtype A) | 0.01 µM |
| Nc1nc2c(ncn2COC2COP(=O)(O)OC2)c(=O)[nH]1 | HeLa | LONG | >125 µg/mL |
| CC(C)CCCC(C)C1CCC2C3CC=C4CC(OC(=O)Nc5ccc(S(=O)(=O)O)c6ccccc56)CCC4(C)C3CCC12C | HeLa |  | 6.5 µM |